# Laboratory results published in ChEMBL document CHEMBL1789904, “Imaging of Plasmodium liver stages to drive next-generation antimalarial drug discovery” (Science, 2011).
# This is one part of the list. Entries with a potency or affinity are not part of this list.
# Test system: Plasmodium yoelii
# Assay: NOVARTIS: Antimalarial liver stage activity measured as reduction in Plasmodium yoelii schizont area in HepG2-A16-CD81 cells by immuno-fluorescence, and median schizont size at 10uM compound concentration
# Assay type: functional, organism-based
# Procedure, shortened: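 Host and parasite nuclei stained with Hoechst 33342, parasites with αPyHSP70 antibody; 25 images per well by high-content imaging; median parasite (schizont) area measured by automated image analysis, ~50 schizonts per experiment, two or more independent experiments.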
structure (smiles),measurement,value
CCCN(CCC)[P+](CC)(N(CCC)CCC)N(CCC)CCC,Schizont size,31.2 µM
